# Assay results reported in US20190169602.
# Tags and fusion partners may be left off the protein sequences shown.
# Molecular target: T1, Tn5 transposase (UniProt Q46731)
# T1 sequence (limits assumed): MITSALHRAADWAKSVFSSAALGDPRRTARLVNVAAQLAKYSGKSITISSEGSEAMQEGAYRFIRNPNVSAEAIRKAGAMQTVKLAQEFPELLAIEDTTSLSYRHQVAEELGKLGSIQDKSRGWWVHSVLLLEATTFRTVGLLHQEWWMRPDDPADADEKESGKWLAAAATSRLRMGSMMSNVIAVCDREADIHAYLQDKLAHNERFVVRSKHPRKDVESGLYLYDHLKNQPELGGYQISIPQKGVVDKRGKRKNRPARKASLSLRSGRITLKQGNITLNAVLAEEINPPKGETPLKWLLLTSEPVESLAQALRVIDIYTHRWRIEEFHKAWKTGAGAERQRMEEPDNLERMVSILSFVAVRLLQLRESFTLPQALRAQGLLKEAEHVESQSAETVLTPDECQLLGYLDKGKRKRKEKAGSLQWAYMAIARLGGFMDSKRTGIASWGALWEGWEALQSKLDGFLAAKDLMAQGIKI
# Test: activity assay
# Settings: Tn5 added to MuA transposomes 1 h room temp; transposition into pUC19 confirmed by sequencing with MuA-Tn5 TSC; 25 mM Tris pH 8.0, 10 mM MgCl2, 110 mM NaCl; purified recombinant protein
sequence,measurement,value
GATCTGAAGCGGCGCACGAAAAACGCGAAAGCGTTTCACGATAAATGCGAAAACAAAACCATCGCCGAGATTTGCCCGTAGATTTCAGTGCCGGTTAACTCCTCGAGCAATTCCGCGCGTTCTTTGGGTTTGGCATTCAGGAAGGCAGCAAATTAGATGTGTATAAGAGACAG (double strand),activity on this sequence,active
